Measurements taken from patent US20100009970A1, “COMPOSITIONS AND METHODS FOR TREATMENT OF VIRAL DISEASES” (Combinatorx (Singapore) Pte. Ltd., priority 2008, published 2010).

Tested on: Huh7 cells expressing a subgenomic RNA replicon of Con1 (genotype 1b) sequence origin
Conditions: ratio CC50 / IC50

SMILES | TI | Therapeutic index
CN[C@H]1CC[C@@H](c2ccc(Cl)c(Cl)c2)c2ccc(S(N)(=O)=O)cc21 [Sertraline Sulfonamide NH2, (5S,8S)-5-(3,4-dichlorophenyl)-8-(methylamino)-5,6,7,8-tetrahydronaphthalene-2-sulfonamide] | 2.74 | 2.74
CN[C@H]1CC[C@@H](c2ccc(Cl)c(Cl)c2)c2ccc(S(=O)(=O)NC)cc21 [Sertraline Sulfonamide, (5S,8S)-5-(3,4-dichlorophenyl)-N-methyl-8-(methylamino)-5,6,7,8-tetrahydronaphthalene-2-sulfonamide] | 1.9 | 1.9
